Test system: E. coli
Assay: In vitro anti-microbial assay (inoculated ointment, 28 days)
Conditions: ointment containing 1.0%; at 7 days and all subsequent samples to 28 days, 20°-25° C.

## CC1(C)OOC(CCC(C)(O)C2OCOO2)O1 (stereo not shown) [linalool trioxolane]
  viable CFUs present: less than 10 CFUs

From patent US5364879A, “Medical uses of trioxolane and diperoxide compounds” (Cliveden Ltd., priority 1994, dated 1994)
